Measurements from patent US20220387578A1, “Peptide vaccine based on a new universal influenza a hemagglutinin head domain epitope and human monoclonal antibodies binding thereto” (VANDERBILT UNIVERSITY, published 2022).

Target: H3 HA A/Hong Kong/1/1968 (H3N2), recombinant soluble trimer (influenza A virus, UniProt Q91MA7 17-530)

B1: rFluA-20 heavy chain mutant D98A (antibody, V domains shown)
VH: QVQLQESGPGLVKPSETLSLTCSVSGVSVTSDIYYWTWIRQPPGKGLEWIGYIFYNGDTNYNPSLKSRVTMSIDTSKNEFSLRLTSVTAADTAVYFCARGTEALGYCSSGSCPNHWGQGTLVTVSS
VL: DIQMTQSPSSLSASIGDRVTITCRPSQNIRSFLNWFQHKPGKAPKLLIYAASNLQSGVPSRFSGSGSGTEFTLTIRSLQPEDFATYYCQQSYNTPPTFGQGTKVEIK
  binding result: no binding (tested: 10 µg/mL)
